Pooled drug test results. Numbers come from NIAID ChemDB, via PubChem.

Common to all: tests in culture; agent: Mycobacterium bovis BCG

An empty or dashed field is not shown.

smiles	strain	conditions	read by	measure	value
CC(C(=O)O)c1ccc2c(c1)[nH]c1ccc(N3CCOCC3)cc12	-	-	resazurin / visual reading / absorbance	MIC99	>250 µg/mL
C#CCCO	1173P2	48 h	resazurin	MIC	125 µg/mL
CCCCn1cc(/C=N/NC(=S)NN)c2ccccc21	1173P2	48 h	broth dilution	MIC100	>500 µg/mL
CCCCCCCC(=O)OC(=O)CCCCCC	1173P2	24 h	resazurin	MIC	125 µg/mL
COC(=O)N[C@H]1[C@@H](C)O[C@@H](O[C@H]2C/C=C(\C)C3C=CC4C([C@@H](C)C[C@H](O[C@@H]5C[C@H](C)[C@H](O)[C@@](O)(C6C[C@@H](O)[C@H](O[C@H]7CC[C@@H](OC)[C@H](C)O7)[C@H](C)O6)C5)[C@@H]4O)[C@]3(C)C(O)=C3C(=O)OC4(CC(C=C(CO)[C@@H]4C)/C=C/2C)C3=O)C[C@]1(C)[N+](=O)[O-]	Pasteur	-	-	MIC	25 µM
C#CC(CCCCC)OC(=O)CCCCCC	1173P2	24 h	resazurin	MIC	62.5 µg/mL
Cc1ccc2[nH]c3ccc(CC(=O)O)cc3c2c1	-	-	resazurin / visual reading / absorbance	MIC99	250 µg/mL
CCCCCCn1cc(/C=N/NC(=S)NN)c2ccccc21	1173P2	24 h	broth dilution	MIC100	>500 µg/mL
O=C(O)C#Cc1ccccc1	1173P2	24 h	resazurin	MIC	62.5 µg/mL
N#Cc1ccc(Cn2cc(/C=N/NC(=S)NN)c3ccccc32)cc1	1173P2	24 h	broth dilution	MIC100	>500 µg/mL
COC(=O)Cc1ccc2[nH]c3ccc(OC)cc3c2c1	-	-	resazurin / visual reading / absorbance	MIC99	31.3 µg/mL
Nc1ccccc1O.O.O=C(O)C1[O][Sb][O]C1C(=O)O	Pasteur	-	-	MIC	25 µM
CCOC(=O)C#CC(=O)OCC	1173P2	24 h	resazurin	MIC	7.75 µg/mL
CC(=O)[C@]1(O)Cc2c(O)c3c(c(O)c2[C@@H](O[C@H]2C[C@H](N)[C@H](O)[C@H](C)O2)C1)C(=O)c1ccccc1C3=O	Pasteur	-	-	MIC	6.25 µM
COC(=O)Cc1ccc2[nH]c3ccc(Br)cc3c2c1	-	-	resazurin / visual reading / absorbance	MIC99	15.6 µg/mL
C#CCCOC(=O)CCCCCC	1173P2	48 h	resazurin	MIC	125 µg/mL
O=[N+]([O-])c1cccc(/C=N/Nc2ccc3ccccc3n2)c1O	Pasteur	-	-	MIC	>100 µM
Brc1ccc(Cn2cc(/C=N/Nc3nncs3)c3ccccc32)cc1	1173P2	48 h	broth dilution	MIC100	3.91 µg/mL
CCn1cc(C(=O)O)c(=O)c2cc(F)c(N3CCNC(C)C3)c(F)c21	Pasteur	-	-	MIC	1.56 µM
CCOC(=O)C#Cc1ccccc1	1173P2	48 h	resazurin	MIC	7.75 µg/mL
Clc1ccc2[nH]c3ccccc3c2c1	-	-	resazurin / visual reading / absorbance	MIC99	>500 µg/mL
COC(=O)[C@@H]1[C@H](O)[C@H](C)C(O)[C@H](C)/C=C\C=C(/C)C(=O)Nc2c(C)c(OC(C)=O)c3c(c2O)C(=O)C(C)=C2OCOC(=C23)/C(C)=C/[C@@](C)(O)[C@H](O)[C@@H](C)[C@H]1OC(C)=O	Pasteur	-	-	MIC	25 µM

MIC50, MIC90 and the like: level of inhibition, or share of isolates inhibited. Rows are shuffled and stem from different studies.